Values quoted from earlier work as cited in patent US4325960A, “6-Amidinopenicillanic acid derivatives including the radical of a β-lactamase inhibitor” (Leo Pharmaceutical Products Ltd. A/S (Lovens Kemiske Fabrik, priority 1979, dated 1982).

System: β-lactamases
Details: cited from earlier work

CC1(C)S[C@@H]2[C@H](Br)C(=O)N2[C@H]1C(=O)O
β-lactamase inhibition: powerful inhibitors of a wide range of β-lactamases
